In BindingDB's records for doi:10.1021/acs.biochem.6b01048 (Stony Brook University, 2017):

Target: T1, Enoyl-[acyl-carrier-protein] reductase [NADH] (Burkholderia pseudomallei, UniProt Q3JG55)
T1 sequence (Q3JG55 whole entry): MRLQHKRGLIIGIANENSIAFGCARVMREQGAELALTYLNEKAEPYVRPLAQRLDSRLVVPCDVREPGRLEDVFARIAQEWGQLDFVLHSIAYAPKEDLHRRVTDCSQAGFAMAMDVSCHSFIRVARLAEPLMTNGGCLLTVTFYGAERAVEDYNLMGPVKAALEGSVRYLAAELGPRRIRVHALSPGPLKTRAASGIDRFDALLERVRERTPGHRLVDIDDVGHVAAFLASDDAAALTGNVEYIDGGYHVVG
Details: pH 8; 25 °C

Compound: CCc1ccc(Oc2ccccc2)c(O)c1 [PT01]
- Ki: 32 nM
